A mixed list of measured activities; the numbers were collected in NIAID ChemDB.

All rows: growth or infection tests; organism: Herpes simplex virus 1

ECn: concentration that inhibits the pathogen or its effect by n%.

| smiles | strain | cell line | read by | read-out | dose | value |
|---|---|---|---|---|---|---|
| O=c1[nH]c(=O)n([C@H]2C[C@H](O)[C@@H](CO)O2)cc1/C=C/Br | KOS BVDU-resistant | HEL | cytopathic effect | EC50 |  | 44 µg/mL |
| O=C1CC(=O)N([C@@H]2O[C@H](CO)[C@@H](O)[C@H]2O)C(=O)N1 | KOS | HeLa | cytopathic effect | EC50 |  | >200 µg/mL |
| C[C@@]1(CO)[C@H](O)CC[C@@]2(C)[C@H]1CC[C@H]1C[C@@H]3C[C@@]12CC[C@]3(O)CO | PMEA-resistant-1 | HeLa | virus yield | EC90 |  | 0.1 µM |
| O=C(O)P(=O)(O)O | V8663 | SIRC | plaque count | inhibition | 500 µM | >99.9% |
| CC[C@H]1[C@@H]2C[C@H]3[C@@H]4N(C)c5ccccc5[C@]45C[C@@H]([C@@H]2[C@H]5O)N3[C@@H]1O | KOS | HeLa | cytopathic effect | EC50 |  | >200 µg/mL |
| COC(=O)[C@H]1[C@H](O)[C@@H](C)[C@@H](O)[C@](C)(O)/C=C(\C)C2=C3C(=C(C)C(=O)c4c(O)c(c(C)c(OC(C)=O)c43)NC(=O)/C(C)=C/C=C\[C@@H](C)C(O)[C@@H](C)[C@H]1O)OCO2 |  | CV | plaque count | inhibition | 6.5 µM | 33.3% |
| Nc1nc2c(ncn2COCCOP(=O)(O)C(=O)O)c(=O)[nH]1 | L2/R | VERO | cytopathic effect | EC95 |  | >286 µM |
| Nc1ncc2c(ncn2COC(CO)CO)n1 | KOS HPMPA-resistant | HEL | cytopathic effect | EC50 |  | 0.3 µg/mL |
| C=CCCCCCCCCC(=O)O | KOS | HeLa | cytopathic effect | EC50 |  | >200 µg/mL |
| Nc1nc(=O)n([C@@H]2O[C@H](CO)[C@@H](O)[C@@H]2F)cc1I | KOS BVDU-resistant | HEL | cytopathic effect | EC50 |  | 9.9 µg/mL |
| O=C(O)CP(=O)(O)O | 90155 | SIRC | plaque count | inhibition | 100 µM | 94% |
| CCOC(=O)P(=O)(OC)OC[C@H]1O[C@@H](n2cc(CCCl)c(=O)[nH]c2=O)C[C@@H]1O | BRAND | VERO | cytopathic effect | inhibition | 0.7 µM | >25% |
| Nc1ncnc2c1ncn2[C@@H]1O[C@H](CO)[C@@H](O)[C@@H]1O | KOS GCV-resistant | HEL | cytopathic effect | EC50 |  | 15 µg/mL |
| CCOC(=O)P(=O)(O)OC[C@H]1O[C@@H](n2cc(CCCl)c(=O)[nH]c2=O)C[C@@H]1O | TK- | VERO | cytopathic effect | inhibition | 70.3 µM | >25% |
| O=C(O)P(=O)(O)O | KOS | HeLa | virus yield | EC90 |  | 160 µM |
| O=C(CP(=O)(O)O)OC[C@H]1O[C@@H](n2cc(CCCl)c(=O)[nH]c2=O)C[C@@H]1O | BRAND | VERO | cytopathic effect | inhibition | 24.2 µM | >25% |
| COc1ccc(CCC(=O)c2c(O)cc(O[C@@H]3O[C@H](CO)[C@@H](O)[C@H](O)[C@H]3O[C@@H]3O[C@@H](C)[C@H](O)[C@@H](O)[C@H]3O)cc2O)cc1O | KOS | HeLa | cytopathic effect | EC50 |  | >200 µg/mL |
| COP(=O)(CC(=O)O[C@H]1C[C@H](n2cc(CCCl)c(=O)[nH]c2=O)O[C@@H]1CO)OC | TK- | VERO | cytopathic effect | inhibition | 227 µM | >25% |
| Nc1ccn(C[C@@H](CO)OCP(=O)(O)O)c(=O)n1 | KOS HPMPA-resistant | HEL | cytopathic effect | EC50 |  | 2.7 µg/mL |
| COC(=O)P(=O)(O)OC[C@H]1O[C@@H](n2cc(CCCl)c(=O)[nH]c2=O)C[C@@H]1O | BRAND | VERO | cytopathic effect | inhibition | 24.2 µM | >25% |
| Nc1nc(N)c2ncn(CCOCP(=O)(O)O)c2n1 | KOS | HEL | cytopathic effect | EC50 |  | 3.6 µg/mL |
| N[C@@H]1[C@@H](O)[C@H](O)[C@@H](CO)O[C@H]1O | KOS | HeLa | cytopathic effect | EC50 |  | >20000 µM |
| CCOC(=O)CP(=O)(OC)OC[C@H]1O[C@@H](n2cc(CCCl)c(=O)[nH]c2=O)C[C@@H]1O | BRAND | VERO | cytopathic effect | inhibition | 6.6 µM | >25% |

Repeating the final 2 entries:

N[C@@H]1[C@@H](O)[C@H](O)[C@@H](CO)O[C@H]1O ; strain: KOS ; cell line: HeLa ; read by: cytopathic effect ; read-out: EC50 ; value: >20000 µM
CCOC(=O)CP(=O)(OC)OC[C@H]1O[C@@H](n2cc(CCCl)c(=O)[nH]c2=O)C[C@@H]1O ; strain: BRAND ; cell line: VERO ; read by: cytopathic effect ; read-out: inhibition ; dose: 6.6 µM ; value: >25%

Lines come from different laboratories, so protocols vary. Blank or dashed fields: not listed here. Inhibition is in % at the dose shown (toxicity tests: loss of growth or viability).